Results of unrelated studies side by side (data: NIAID ChemDB).

Common to all: target-level tests; organism: Hepatitis C virus; protein: Nonstructural protein 5B; measure: IC50

ICn is the concentration giving n% inhibition.

COCCNc1nc(Nc2ccc3cn[nH]c3c2)nc(OC)n1 ; result: 1–10 µg/mL
O=C1OC(CCc2ccc(O)cc2)(C2CCCC2)CC(O)=C1Sc1ccc2ccccc2c1 ; result: 1–10 µM
CNC(=O)c1c(-c2ccc(F)cc2)oc2cc(-c3cc(COC)on3)c(OC(C)C)cc12 ; result: ≤0.5 µM
COc1c(-c2ccc3cc(NS(C)(=O)=O)ccc3c2)cc(-n2ccc(=O)[nH]c2=O)cc1C(C)(C)C ; read by: nucleotide incorporation ; strain: GT 3a#1 ; result: 5.6 µM
CNC(=O)c1c(-c2ccc(F)cc2)oc2ccc(OCc3cccc(C(=O)OC)c3)cc12 ; result: ≤0.5 µM
O=C(O)C(=O)/C=C(\O)c1cccc(NS(=O)(=O)c2cc(Cl)c(Cl)cc2Cl)c1 ; result: 0.25 µM
O=C(O)CCN1C(=O)C(=Cc2ccc(-c3ccc4c(c3)OCO4)o2)SC1=S ; result: ≤1 µM
COc1ccc(CCC2(C3CCCC3)CC(O)=C(Sc3nc4ccccc4[nH]3)C(=O)O2)cc1Cl ; result: <1 µM
COc1nc(NCCc2c[nH]c3ccccc23)nc(Nc2ccc3cn[nH]c3c2)n1 ; result: 1–10 µg/mL
CCCCc1ccc(-c2ccc(C=C3SC(=S)N(c4ccc(C(=O)O)cc4)C3=O)o2)cc1 ; result: ≤1 µM
Cc1cc(SC2=C(O)CC(C)(C)OC2=O)c(C(C)(C)C)cc1N ; result: >50 µM
COc1nc(Nc2ccc3cn[nH]c3c2)nc(N2CCCC2)n1 ; result: 1–10 µg/mL
Cc1ccc(-c2ccc(C=C3SC(=S)N(CCC(=O)O)C3=O)o2)s1 ; result: ≤1 µM
COc1ccc(CCC2(C3CCCC3)CC(=O)C(C(=O)Cc3cc(C)no3)C(=O)O2)cc1 ; result: 10–50 µM
CNC(=O)c1c(-c2ccc(F)cc2)oc2cc(Br)c(OC)cc12 ; result: ≤0.5 µM
CCOC(=O)N1CCN(c2nc(Nc3ccc4[nH]ncc4c3)nc(OC)n2)CC1 ; result: >10 µg/mL
CCNS(=O)(=O)Oc1cc(C(C)(C)C)c(SC2=C(O)CC(CCc3cccc(O)c3)(C3CCCC3)OC2=O)cc1C ; result: >50 µM
O=C(O)c1ccc(N2C(=O)C(=Cc3ccc(-c4cc(Cl)ccc4Cl)o3)SC2=S)cc1 ; result: ≤1 µM
CNC(=O)c1c(-c2ccc(F)cc2)oc2cc(N3CCOCC3)c(OCc3nn(C)cc3Cl)cc12 ; result: ≤0.5 µM
O=C(O)CCN1C(=O)C(=Cc2ccc(-c3cccs3)o2)SC1=S ; result: ≤1 µM
COc1ccc(CCC2(C3CCCC3)CC(O)=C(Sc3nnnn3-c3ccc(O)cc3)C(=O)O2)cc1 ; result: <1 µM
C[C@@]1(O)[C@H](O)[C@@H](COP(=O)([O-])OP(=O)([O-])OP(=O)([O-])O)O[C@H]1n1cnc2c(N)nc(N)nc21 ; read by: nucleotide incorporation ; strain: WT gt 1b ; result: 3.6 µM
O=C(O)CCN1C(=O)C(=Cc2ccc(-c3ccc(Cl)c(Cl)c3)o2)SC1=S ; result: ≤1 µM
COc1nc(NCCCN2CCOCC2)nc(Nc2ccc3[nH]ncc3c2)n1 ; result: >10 µg/mL
CCN(C1=C(O)CC(CCc2ccc(O)cc2)(C2CCCC2)OC1=O)c1ccccc1 ; result: 1–10 µM
CNC(=O)c1c(-c2ccc(F)cc2)oc2cc(N(C)S(C)(=O)=O)c(OCc3nn(C)cc3Cl)cc12 ; result: ≤0.5 µM
COc1nc(NCCc2c[nH]c3ccccc23)nc(Nc2ccc3[nH]ncc3c2)n1 ; result: >10 µg/mL

A second listing of 2 rows from above:

structure,read by,strain,result
CNC(=O)c1c(-c2ccc(F)cc2)oc2ccc(OCc3cccc(C(=O)OC)c3)cc12,-,-,≤0.5 µM
COc1ccc(CCC2(C3CCCC3)CC(O)=C(Sc3nnnn3-c3ccc(O)cc3)C(=O)O2)cc1,-,-,<1 µM

Rows are shuffled and stem from different studies. An empty or dashed field is not shown. Two numbers with a dash give a range or band.